Results of unrelated studies side by side (data: NIAID ChemDB).

Shared fields: tests in culture; species: HIV-1

An empty or dashed field is not shown. Two numbers with a dash give a range or band. Lines come from different laboratories, so protocols vary. ECn is the concentration giving n% inhibition of infection, replication or growth.

{"structure": "CC(C)[C@H](NC(=O)OCc1ccccn1)C(=O)N[C@@H](Cc1ccccc1)[C@@H](O)C[C@H](Cc1ccccc1)NC(=O)OCc1cccnc1", "read-out": "EC95", "strain or isolate": "NL4-3", "read by": "p24", "changes": "PR-L10R L63P V82T I84V", "cell line": "MT-4", "result": "1.5 µM"}
{"structure": "CC(=O)c1ccc(C)cc1NC(C(N)=O)c1c(Cl)cccc1Cl", "read-out": "EC50", "strain or isolate": "IIIB", "read by": "cytopathic effect / XTT", "cell line": "CEM + CEM-SS", "result": "0.01 µM"}
{"structure": "Cc1cc(S(N)(=O)=O)ccc1NC(=O)COc1ccc(Cl)cc1C(=O)c1cc(F)cc(C#N)c1", "read-out": "EC50", "strain or isolate": "IIIB", "read by": "cytopathic effect / propidium iodide", "cell line": "MT-4", "result": "<0.01 µM"}
{"structure": "COc1ccc(S(=O)(=O)N(CC(C)C)C[C@@H](O)CC(=O)N2CCN(Cc3cccnc3)C[C@H]2C(=O)NC(C)(C)C)cc1", "read-out": "EC90", "strain or isolate": "IIIB", "read by": "p24", "cell line": "CEM", "result": "1 µM"}
{"structure": "Cc1ncc(-c2ccc(OCCCC3CCCCC3)cn2)c(N2CCC(C)(C)CC2)c1[C@H](OC(C)(C)C)C(=O)O", "read-out": "EC50", "strain or isolate": "NL4-3", "read by": "luminescence", "cell line": "MT-2", "result": "0.0032 µM"}
{"structure": "Cc1cc(S(N)(=O)=O)ccc1NC(=O)COc1ccc(Cl)cc1C(=O)c1cc(F)cc(C(F)(F)F)c1", "read-out": "EC50", "strain or isolate": "HXB2", "read by": "β-galactosidase", "changes": "RT-Y188C", "cell line": "HeLa + HELA CD4+", "result": "<0.01 µM"}
{"structure": "Cc1cc(/C=C/C#N)cc(C)c1Oc1nc(NC2CCN(Cc3cccnc3)CC2)nc2ccsc12", "read-out": "EC50", "strain or isolate": "IIIB", "read by": "MTT", "changes": "NNRTI-resistant (RT E138K)", "cell line": "MT-4", "result": "0.00659 µM"}
{"structure": "Cc1cc(Cl)cc(C(=O)c2cc(Cl)ccc2OCC(=O)Nc2ccc(S(N)(=O)=O)cc2C)c1", "read-out": "EC50", "strain or isolate": "IIIB", "read by": "cytopathic effect / propidium iodide", "cell line": "MT-4", "result": "0.011–0.1 µM"}
{"structure": "CC1c2nc(C(=O)NCc3ccc(F)cc3)c(O)c(=O)n2CCN1Cc1ccnn1C", "read-out": "EC50", "read by": "p24", "cell line": "MT-4", "result": "<1 µM"}
{"structure": "O=C(CN1CCOCC1)N1CCC(n2c(=O)c(O)c3n(c2=O)CCN(Cc2ccc(F)cc2)C3=O)CC1", "read-out": "EC95", "read by": "p24", "cell line": "MT-4", "result": "<10 µM"}
{"structure": "O=C(NCc1ccc(F)cc1)c1nc2n(c(=O)c1O)CCNC2COCc1ccccc1", "read-out": "EC95", "read by": "p24", "cell line": "MT-4", "result": "<1 µM"}
{"structure": "COc1cc(F)ccc1OCCN(C)c1ccc(-c2cnc(C)c([C@H](OC(C)(C)C)C(=O)O)c2N2CCC(C)(C)CC2)cn1", "read-out": "EC50", "strain or isolate": "NL4-3", "read by": "luminescence", "cell line": "MT-2", "result": "0.0008 µM"}
{"structure": "Cc1cc(C#N)cc(C)c1Oc1nc(NC2CCC(NCc3cccc(C(F)(F)F)c3)CC2)nc2ccsc12", "read-out": "EC50", "strain or isolate": "IIIB", "read by": "MTT", "changes": "NNRTI-resistant (RT E138K)", "cell line": "MT-4", "result": ">707 µM"}
{"structure": "Cc1ncc(-c2ccc(OCCn3nc(C(F)F)c4c3C(F)(F)[C@H]3C[C@@H]43)cn2)c(N2CCC(C)(C)CC2)c1[C@H](OC(C)(C)C)C(=O)O", "read-out": "EC50", "strain or isolate": "NL4-3", "read by": "luminescence", "cell line": "MT-2", "result": "0.0035 µM"}
{"structure": "Cc1cc(C#N)cc(C(=O)c2cc(Cl)ccc2OCC(=O)Nc2ccc(S(N)(=O)=O)cc2C)c1", "read-out": "EC50", "strain or isolate": "HXB2", "read by": "β-galactosidase", "changes": "RT-V106A Y181C", "cell line": "HeLa + HELA CD4+", "result": "<0.01 µM"}
{"structure": "Cc1ccc(OCCNc2ccc(-c3cnc(C)c([C@H](OC(C)(C)C)C(=O)O)c3N3CCC(C)(C)CC3)cn2)cc1C", "read-out": "EC50", "strain or isolate": "NL4-3", "read by": "luminescence", "cell line": "MT-2", "result": "0.0032 µM"}
{"structure": "Cc1cc(OCCCS(N)(=O)=O)ccc1NC(=O)COc1ccc(Cl)cc1C(=O)c1cc(F)cc(C(F)(F)F)c1", "read-out": "EC50", "strain or isolate": "HXB2", "read by": "β-galactosidase", "changes": "RT-G190E", "cell line": "HeLa + HELA CD4+", "result": "<0.01 µM"}
{"structure": "COc1ccc(S(=O)(=O)N(CC(C)C)C[C@@H](O)CCNc2cc(C(C)(C)C)sc2C(N)=O)cc1", "read-out": "EC50", "strain or isolate": "IIIB", "read by": "p24", "cell line": "CEM", "result": "<1 µM"}
{"structure": "CCCc1cc(=O)oc2c3c(c4c(c12)OC(C)(C)CC4)O[C@@H](C)[C@H](C)[C@@H]3O", "read-out": "EC50", "strain or isolate": "UC10-resistant (RT K103N)", "read by": "XTT", "changes": "RT-K103N", "cell line": "CEM + CEM-SS", "result": ">20 µM"}
{"structure": "CC(C)=CCOc1cc(NC(=S)c2ccoc2C)ccc1Cl", "read-out": "EC50", "strain or isolate": "Costatolide-resistant (RT Y188H)", "read by": "cytopathic effect / XTT", "changes": "RT-Y188H", "cell line": "CEM + CEM-SS", "result": "0.1 µM"}
{"structure": "CN1CCn2c(nc(C(=O)NCc3ccc(F)cc3)c(O)c2=O)C(N(C)C(=O)C(=O)N2CCCC2)C1", "read-out": "EC95", "read by": "p24", "cell line": "MT-4", "result": "<1 µM"}
{"structure": "CC(C)CN(CC(O)CN1CCN(Cc2cccnc2)CC1C(=O)NC(C)(C)C)S(=O)(=O)c1ccccc1", "read-out": "EC90", "strain or isolate": "IIIB", "read by": "p24", "cell line": "CEM", "result": "1 µM"}
{"structure": "CN1CCn2c(nc(C(=O)NCc3ccc(F)c(Cl)c3)c(O)c2=O)C1(C)C", "read-out": "EC95", "read by": "p24", "cell line": "MT-4", "result": "<1 µM"}
{"structure": "C/C=C/CSc1cc(NC(=S)c2ccsc2C)ccc1Cl", "read-out": "EC50", "strain or isolate": "IIIB", "read by": "p24", "cell line": "CEM + CEM-SS", "result": "0.4 µM"}
{"structure": "O=C1c2c(O)c(=O)n(C3CCN(CC4CC4)CC3)c(=O)n2CCN1Cc1ccc(F)cc1", "read-out": "EC50", "read by": "p24", "cell line": "MT-4", "result": "<10 µM"}
{"structure": "COc1ccc(S(=O)(=O)N(Cc2ccccc2)CC(O)CN(CC2CCCC2)S(=O)(=O)c2ccccc2)cc1", "read-out": "EC50", "strain or isolate": "IIIB", "read by": "p24", "cell line": "CEM", "result": "<1 µM"}
{"structure": "Cc1cc(C#N)cc(C(=O)c2cc(Cl)ccc2OCC(=O)Nc2ccc(OCCCN3CC=CC3)cc2C)c1", "read-out": "EC50", "strain or isolate": "HXB2", "read by": "β-galactosidase", "changes": "RT-V106I", "cell line": "HeLa + HELA CD4+", "result": "<0.01 µM"}
{"structure": "CN(C)C(=O)C(=O)N(C)C1CN(CCc2ccccc2)CCn2c1nc(C(=O)NCc1ccc(F)cc1)c(O)c2=O", "read-out": "EC95", "read by": "p24", "cell line": "MT-4", "result": "<1 µM"}
{"structure": "O=C1c2c(O)c(=O)n(C3CCSc4ccccc43)c(=O)n2CCN1Cc1ccc(F)cc1", "read-out": "EC95", "read by": "p24", "cell line": "MT-4", "result": "<10 µM"}
{"structure": "COP(=O)(c1cc(C)cc(CCC#N)c1)c1c(C(N)=O)[nH]c2ccc(Cl)c(F)c12", "read-out": "EC50", "strain or isolate": "IIIB", "read by": "cytopathic effect", "changes": "K103R/V179D/P225H", "cell line": "MT-4", "result": "0.01 µM"}
{"structure": "CC(=O)N1CCC(n2c(=O)c(O)c3n(c2=O)CCN(Cc2ccc(F)cc2)C3=O)CC1", "read-out": "EC95", "read by": "p24", "cell line": "MT-4", "result": "<10 µM"}
{"structure": "CC(C)=CCOc1cc(NC(=S)c2ccsc2C)ccc1Cl", "read-out": "EC50", "strain or isolate": "NL4-3 (RT Y188C)", "read by": "cytopathic effect / XTT", "changes": "RT-Y188C", "cell line": "CEM + CEM-SS", "result": "0.006 µM"}
{"structure": "Cc1ncc(-c2cnc(OCCCN3CCCCC3)c(F)c2)c(N2CCC(C)(C)CC2)c1[C@H](OC(C)(C)C)C(=O)O", "read-out": "EC50", "strain or isolate": "NL4-3", "read by": "luminescence", "cell line": "MT-2", "result": "0.0191 µM"}
{"structure": "O=C(COc1ccc(Cl)cc1C(=O)c1ccccc1)Nc1ccc2cn[nH]c2c1", "read-out": "EC50", "strain or isolate": "IIIB", "read by": "cytopathic effect / propidium iodide", "cell line": "MT-4", "result": "<0.01 µM"}
{"structure": "Cc1cc(/C=C/C#N)cc(C)c1Oc1nc(NC2CCN(Cc3cccc(Cl)c3)CC2)nc2ccsc12", "read-out": "EC50", "strain or isolate": "RES056", "read by": "MTT", "cell line": "MT-4", "result": "0.148 µM"}
{"structure": "Cc1cc2[nH]cnc2cc1NC(=O)COc1ccc(Cl)cc1C(=O)c1cc(F)cc(C(F)(F)F)c1", "read-out": "EC50", "strain or isolate": "HXB2", "read by": "β-galactosidase", "changes": "RT-V106I Y181C", "cell line": "HeLa + HELA CD4+", "result": "<0.01 µM"}
{"structure": "Cc1cc(/C=C/C#N)cc(C)c1Oc1nc(NC2CCN(Cc3cccc(C#N)c3)CC2)nc2ccsc12", "read-out": "EC50", "strain or isolate": "IIIB", "read by": "MTT", "changes": "NNRTI-resistant (RT Y181C)", "cell line": "MT-4", "result": "0.0269 µM"}
{"structure": "O=C(N[C@@H](Cc1ccccc1)C(=O)C(F)(F)CN(Cc1ccccc1)S(=O)(=O)c1ccccc1)OCc1ccccc1", "read-out": "EC90", "strain or isolate": "IIIB", "read by": "p24", "cell line": "CEM", "result": "1 µM"}
{"structure": "Cc1cc(/C=C/C#N)cc(C)c1Oc1nc(NC2CCN(Cc3ccc(C#N)cc3)CC2)nc2ccsc12", "read-out": "EC50", "strain or isolate": "IIIB", "read by": "MTT", "changes": "NNRTI-resistant (RT F227L V106A)", "cell line": "MT-4", "result": "0.0227 µM"}
{"structure": "Cc1cc(S(N)(=O)=O)ccc1NC(=O)COc1ccc(Cl)cc1C(=O)c1cc(F)cc(F)c1", "read-out": "EC50", "strain or isolate": "HXB2", "read by": "β-galactosidase", "changes": "RT-Y188C", "cell line": "HeLa + HELA CD4+", "result": "<0.01 µM"}
{"structure": "CN(C)CC1c2nc(C(=O)NCc3ccc(F)cc3)c(O)c(=O)n2CCN1Cc1ccn(C)n1", "read-out": "EC95", "read by": "p24", "cell line": "MT-4", "result": "1–10 µM"}
{"structure": "CC(C)CN(CC(O)CNc1cc(C(C)(C)C)[nH]n1)S(=O)(=O)c1ccccc1", "read-out": "EC90", "strain or isolate": "IIIB", "read by": "p24", "cell line": "CEM", "result": "1 µM"}
{"structure": "COc1ccccc1OCCOc1ccc(-c2cnc(C)c([C@H](OC(C)(C)C)C(=O)O)c2N2CCC(C)(C)CC2)nc1", "read-out": "EC50", "strain or isolate": "NL4-3", "read by": "luminescence", "cell line": "MT-2", "result": "0.0024 µM"}
{"structure": "Cc1ccc(CN2CCC(Nc3nc(Oc4c(C)cc(/C=C/C#N)cc4C)c4sccc4n3)CC2)cc1", "read-out": "EC50", "strain or isolate": "IIIB", "read by": "MTT", "changes": "NNRTI-resistant (RT K103N)", "cell line": "MT-4", "result": "0.0112 µM"}

A second listing of 4 rows from above:

structure,read-out,strain or isolate,read by,changes,cell line,result
CN(C)C(=O)C(=O)N(C)C1CN(CCc2ccccc2)CCn2c1nc(C(=O)NCc1ccc(F)cc1)c(O)c2=O,EC95,-,p24,-,MT-4,<1 µM
CN(C)CC1c2nc(C(=O)NCc3ccc(F)cc3)c(O)c(=O)n2CCN1Cc1ccn(C)n1,EC95,-,p24,-,MT-4,1–10 µM
Cc1cc(S(N)(=O)=O)ccc1NC(=O)COc1ccc(Cl)cc1C(=O)c1cc(F)cc(F)c1,EC50,HXB2,β-galactosidase,RT-Y188C,HeLa + HELA CD4+,<0.01 µM
O=C1c2c(O)c(=O)n(C3CCSc4ccccc43)c(=O)n2CCN1Cc1ccc(F)cc1,EC95,-,p24,-,MT-4,<10 µM